What was measured:
M2 of Ck/NL/21 (H5N1) = assay: Genotypic susceptibility to M2 protein inhibitors; conditions: M2 residues 26, 27, 30, 31, 34
M2 of Eagle/FL/22 (H5N1) = assay: Genotypic susceptibility to M2 protein inhibitors; conditions: M2 residues 26, 27, 30, 31, 34
M2 of Eagle/NC/22 (H5N1) = assay: Genotypic susceptibility to M2 protein inhibitors; conditions: M2 residues 26, 27, 30, 31, 34
M2 of Hawk/NC/22 (H5N1) = assay: Genotypic susceptibility to M2 protein inhibitors; conditions: M2 residues 26, 27, 30, 31, 34
M2 of Scaup/GA/22 (H5N1) = assay: Genotypic susceptibility to M2 protein inhibitors; conditions: M2 residues 26, 27, 30, 31, 34
[1] = tested on: M2 of Wigeon/SC/21 (H5N1); assay: Genotypic susceptibility to M2 protein inhibitors; conditions: M2 residues 26, 27, 30, 31, 34

Structure (SMILES) | EC50 (Eagle/NC/22 (H5N1)) | EC50 (Hawk/NC/22 (H5N1)) | Susceptibility to M2 inhibitor (amantadine) (M2 of Ck/NL/21 (H5N1)) | Susceptibility to M2 inhibitor (amantadine) (M2 of Eagle/FL/22 (H5N1)) | Susceptibility to M2 inhibitor (amantadine) (M2 of Eagle/NC/22 (H5N1)) | Susceptibility to M2 inhibitor (amantadine) (M2 of Hawk/NC/22 (H5N1)) | Susceptibility to M2 inhibitor (amantadine) (M2 of Scaup/GA/22 (H5N1)) | Susceptibility to M2 inhibitor (amantadine) [1]
O=C1c2c(O)c(=O)ccn2N([C@@H]2c3ccccc3SCc3c2ccc(F)c3F)[C@@H]2COCCN12 | 0.52 nM | 0.27 nM | – | – | – | – | – | –
NC12CC3CC(CC(C3)C1)C2 | – | – | S | S | S | S | S | S
